These results are taken from patent publication US7910622B2, “Modulation of bacterial quorum sensing with synthetic ligands” (Wisconsin Alumni Research Foundation, priority 2007, dated 2011).

Amino acid sequences for entries named in this document (tags omitted).
UniProt P25084, whole entry: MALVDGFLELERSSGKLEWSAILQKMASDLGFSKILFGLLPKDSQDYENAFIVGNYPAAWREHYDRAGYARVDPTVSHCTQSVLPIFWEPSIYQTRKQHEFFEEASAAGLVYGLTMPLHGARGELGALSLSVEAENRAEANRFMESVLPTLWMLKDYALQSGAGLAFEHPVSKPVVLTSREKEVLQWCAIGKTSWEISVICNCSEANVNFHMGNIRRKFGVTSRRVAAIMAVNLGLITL

The target of this experiment is LasR (Pseudomonas aeruginosa, UniProt P25084). The following applies: 5 μM synthetic ligand against 7.5 nM OdDHL; E. coli DH5α (pJN105L pSC11); normalized to OdDHL.

For `CCCCCC(=O)CC(=O)N[C@H]1CCOC1=O` [compound 1, N-(3-oxo-octanoyl)-L-homoserine lactone, reference compound], the “E. coli-LasR Inhibition [%]” value is listed as 50%.
